# T1: BxpB mutant 10M+E125 (Bacillus anthracis)
# T1 chain: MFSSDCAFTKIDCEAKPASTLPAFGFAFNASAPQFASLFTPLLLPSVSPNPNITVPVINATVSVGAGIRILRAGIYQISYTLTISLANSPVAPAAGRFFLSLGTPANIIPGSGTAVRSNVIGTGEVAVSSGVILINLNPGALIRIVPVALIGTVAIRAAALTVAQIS
# Molecular target: T1, BxpB mutant 10M+E125
binder,measurement,value
AFDPNLVGPTLPPIPPFTL (other) [BclA NTD-enhanced green fluorescence protein (eGFP) fusion protein],binding result,binds
